One data set concerns Coxsackie B3 virus. It is filed as cell-based, Coxsackievirus B3 (CVB3, strain Nancy). The note with it: ratio CC50/IC50, Coxsackie B3 virus, Vero cells.
The subject of another data set is CVA16. The experiment in a line: Viral yield reduction assay, CVA16. The note with it: ratio CC50/IC50, CVA16, RD cells. The class given is cell-based, Coxsackievirus A16 (clinical isolate).
The next data set has as its system CVB5. The experiment in a line: Viral yield reduction assay, CVB5. It is filed as cell-based, Coxsackievirus B5 (clinical isolate). The note with it: ratio CC50/IC50, CVB5, Vero cells.
Another data set concerns ECHO30. Description: Viral yield reduction assay, ECHO30. The class given is cell-based, ECHO30 (clinical isolate). The note with it: ratio CC50/IC50, ECHO30, RD cells.
For another data set, the system named is CVA24. Description: Viral yield reduction assay, CVA24. The class given is cell-based, Coxsackievirus A24 (clinical isolate). The note with it: ratio CC50/IC50, CVA24, RD cells.
Another data set has as its system CVB4 (strain Powers). Description: Viral yield reduction assay, CVB4. It is filed as cell-based, Coxsackievirus B4 (CVB4. As to conditions: ratio CC50/IC50, CVB4 (strain Powers), Vero cells.

The structures appear in SMILES notation.

Consider `CCc1ccc(N2NC(c3ccccc3)=NN(c3nc4ccccc4s3)C2C)cc1` (stereo not drawn) [Compound 2c], for which, in the data set with Coxsackie B3 virus, the SI is listed as >2.
On to `C=CC1N(c2nc3ccccc3s2)N=C(c2ccccc2)NN1c1ccc(I)cc1` (stereo not drawn) [Compound 4d], for which the SI with Coxsackie B3 virus is 29.
On the same count and under the same terms, as for `CCC1N(c2nc3ccccc3s2)N=C(c2ccccc2)NN1c1ccc(OC)cc1` (stereo not drawn) [Compound 3b], the figure is >38; as for `CC1N(c2nc3ccccc3s2)N=C(c2ccccc2)NN1c1ccccc1` (stereo not drawn) [Compound 2a], >50; as for `Cc1cc(CCCOc2c(C)cc(-c3noc(C(F)(F)F)n3)cc2C)on1` [Pleconaril, reference compound], 43.
On to `c1ccc(C2=NN(c3nc4ccccc4s3)CN(c3ccccc3)N2)cc1` [Compound 1a], for which the SI with Coxsackie B3 virus came out at 230; with CVA16, 841; with CVB5, 413; in the data set with ECHO30 it was 420; in the data set on CVA24 it was 747; in the data set with CVB4 (strain Powers), 364.
Consider `C=CC1N(c2nc3ccccc3s2)N=C(c2ccccc2)NN1c1ccc(Cl)cc1` (stereo not drawn) [Compound 4c], for which the SI in the data set on Coxsackie B3 virus came out at 10.
For `CCC1N(c2nc3ccccc3s2)N=C(c2ccccc2)NN1c1ccccc1` (stereo not drawn) [Compound 3a], in the data set with Coxsackie B3 virus, the SI is given as >2.
As for `Clc1ccc(N2CN(c3nc4ccccc4s3)N=C(c3ccccc3)N2)cc1` [Compound 1c], the SI in the data set with Coxsackie B3 virus is reported as 43.
Same read-out and setting: the same measure for `C=CC1N(c2nc3ccccc3s2)N=C(c2ccccc2)NN1c1ccc(OC)cc1` (stereo not drawn) [Compound 4b]: >2.
The same measure, in the same setting: as for `COc1ccc(N2NC(c3ccccc3)=NN(c3nc4ccccc4s3)C2C)cc1` (stereo not drawn) [Compound 2b], the figure is 85.
Consider `Cl.N=C(N)N` [Guanidine hydrochloride, reference compound], for which the SI in the data set on CVA16 is >31; with CVB5 it was >10; in the data set on ECHO30 it was >83; in the data set on CVA24 it was >33; in the data set with CVB4 (strain Powers) it was >10.
On to `CCC1N(c2nc3ccccc3s2)N=C(c2ccccc2)NN1c1ccc(F)cc1` (stereo not drawn) [Compound 3c], for which the SI with Coxsackie B3 virus is recorded as 5.
Consider `COc1ccc(N2CN(c3nc4ccccc4s3)N=C(c3ccccc3)N2)cc1` [Compound 1b], for which the SI in the data set with Coxsackie B3 virus is on record as >250.
With `Brc1ccc(N2CN(c3nc4ccccc4s3)N=C(c3ccccc3)N2)cc1` [Compound 1d], the SI in the data set on Coxsackie B3 virus is listed as 142.
For the compound `CC1N(c2nc3ccccc3s2)N=C(c2ccccc2)NN1c1ccc(F)cc1` (stereo not drawn) [Compound 2d], the SI with Coxsackie B3 virus is listed as <1.
With `C=CC1N(c2nc3ccccc3s2)N=C(c2ccccc2)NN1c1ccccc1` (stereo not drawn) [Compound 4a], the SI in the data set with Coxsackie B3 virus is >2.
The same measure, in the same setting: as for `CC1N(c2nc3ccccc3s2)N=C(c2ccccc2)NN1c1ccc(Br)cc1` (stereo not drawn) [Compound 2e], the figure is <1.

Source of the values: PMC11123948, “Leucoverdazyls as Novel Potent Inhibitors of Enterovirus Replication” (Pathogens, 2024).
